Substitutions are numbered along the chain they refer to. In names and notes the source's numbering stands.
Experiments:
[1] = target: T1, wild-type LukF-PV (mature, N-terminal 6xHis tag) (Staphylococcus aureus); experiment: MPD-based oligomerization assay (40% MPD, 24 hours), SDS-PAGE without boiling
T1 chain: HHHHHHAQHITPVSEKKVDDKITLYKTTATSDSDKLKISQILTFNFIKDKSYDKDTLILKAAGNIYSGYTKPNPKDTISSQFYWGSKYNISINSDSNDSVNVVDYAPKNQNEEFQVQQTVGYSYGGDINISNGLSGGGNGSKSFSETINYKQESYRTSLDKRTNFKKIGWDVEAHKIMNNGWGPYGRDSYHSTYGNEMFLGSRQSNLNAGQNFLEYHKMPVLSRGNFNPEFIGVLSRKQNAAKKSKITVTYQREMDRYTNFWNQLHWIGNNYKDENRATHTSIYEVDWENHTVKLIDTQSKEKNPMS

[2] = target: T2, LukF-PV mutant K102A (Mut1) (Staphylococcus aureus); experiment: as above
T2 chain: T1 chain with K108A

B1: LukS-PV triple mutant T28F/K97A/S209A (Mut9) (other)
chain: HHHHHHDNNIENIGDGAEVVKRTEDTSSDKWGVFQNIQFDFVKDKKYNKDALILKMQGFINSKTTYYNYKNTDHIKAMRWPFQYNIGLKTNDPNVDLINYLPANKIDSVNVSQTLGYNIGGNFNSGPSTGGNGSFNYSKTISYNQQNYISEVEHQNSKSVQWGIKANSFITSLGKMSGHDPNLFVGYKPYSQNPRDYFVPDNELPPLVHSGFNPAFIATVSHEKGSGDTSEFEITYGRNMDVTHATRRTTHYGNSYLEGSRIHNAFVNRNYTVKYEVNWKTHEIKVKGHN
B1: no binding [1]; no binding [2].
